The results in this text go back to PMC8602850.

Amino acid sequences for entries named in this document (tags omitted). Residues count along the entry.
UniProt Q07021, 74-282: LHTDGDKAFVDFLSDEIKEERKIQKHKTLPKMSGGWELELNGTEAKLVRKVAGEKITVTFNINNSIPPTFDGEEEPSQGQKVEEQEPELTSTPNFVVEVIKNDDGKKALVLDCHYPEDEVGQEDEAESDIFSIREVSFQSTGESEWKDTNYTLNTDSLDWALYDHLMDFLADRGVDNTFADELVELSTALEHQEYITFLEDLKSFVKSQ

The target in this assay is gC1qR, wild type, mature recombinant (receptor for the globular heads of C1q) (UniProt Q07021). The assay can be described thus: SPR; gC1qR-WT or gC1qR-ΔΔ immobilised; two-fold dilution series of analyte injected; reference-corrected sensorgrams fit to kinetic models; apparent KD.

Turning to “SARS-CoV-2 spike S1 protein, recombinant (from UniProt P0DTC2 14-685) (domain or fragment)”, the Kd worked out at 91 nM.
